Assay results taken from article PMC6178619, “Arylvinylpiperazine Amides, a New Class of Potent Inhibitors Targeting QcrB of Mycobacterium tuberculosis” (mBio, 2018).

Tested on: M. tuberculosis H37Rv
Assay: Transcriptional response by RNA-seq
Assay type: cell-based, Mycobacterium tuberculosis
Details: AX-35 at 10× and 30× MIC, 4 h

Compound: O=C(/C=C/c1cccs1)N1CCN(Cc2ccc3c(c2)OCO3)CC1 [AX-35, (E)-1-(4-(Benzo[d][1,3]dioxol-5-ylmethyl)piperazin-1-yl)-3-(thiophen-2-yl)prop-2-en-1-one]
- cydA fold change (RNA-seq): 1.97
- cydB fold change (RNA-seq): 1.99
